## PSTVd stem 15 mutant pool in Nicotiana benthamiana

From the data files of Wu et al. 2024, doi:10.1371/journal.ppat.1012142.

The pool varies stem 15 of the PSTVd intermediate strain in the pattern CUGGAGCGAUNGNNUNNG; wild type is CUGGAGCGAUCGCUUCGG (upper and lower strand joined, each 5' to 3', the first 9 letters being the upper strand).

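Three N. benthamiana plants were inoculated with the whole mutant pool. Progeny were sequenced from the inoculated region (day 5), the margin of the inoculated leaf (day 10) and systemic leaves (day 12).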

Values are reads per thousand in the sample; higher means more abundant, 0 means not found. Each site shows the three plants. "Pool" is the share in the plasmid pool used as inoculum, on the same scale. The inoculated region was read from the minus strand, the other sites from the plus strand. For reference, wild type rose from 10.2 per thousand in the pool to 285, 367, 312 (inoculated region), 785, 865, 782 (leaf margin) and 854, 898, 915 (systemic leaves). With 36,693-63,082 reads a sample, very low values are single reads. Sequences that differ at fixed positions probably stem from PCR or sequencing errors, and defective variants can be carried along by functional ones.

sequence | pool | inoculated region | leaf margin | systemic leaves
CUGGAGCGAUGGAGUCGG | 0.808 | 0.157 / 0.314 / 0.186 | 0.0827 / 0 / 0.0476 | 0 / 0 / 0
CUGGAGCGAUUGAUUUAG | 1.79 | 2.11 / 1.61 / 1.94 | 0.538 / 0.518 / 0.967 | 0.752 / 0.532 / 0.438
CUGGAGCGAUAGGUUUUG | 0.889 | 0.215 / 0.293 / 0.186 | 0.0207 / 0.0545 / 0.0159 | 0 / 0 / 0
CUGGAGCGAUGGCUUCGG | 0.986 | 0.313 / 0.314 / 0.316 | 0.289 / 0.0545 / 0.0476 | 0 / 0.0222 / 0.0797
CUGGAGCGAUAGUGUUCG | 0.792 | 0.333 / 0.377 / 0.298 | 0.0827 / 0.0545 / 0.0317 | 0 / 0 / 0
CUGGAGCGAUAGCAUGAG | 0.727 | 0.274 / 0.209 / 0.242 | 0.0827 / 0.0545 / 0 | 0 / 0 / 0
CUGGAGCGAUUGCAUAGG | 0.905 | 0.215 / 0.188 / 0.335 | 0.0827 / 0.0273 / 0.0793 | 0 / 0 / 0
CUGGAGCGAUGGUAUUAG | 0.937 | 2.19 / 0.963 / 1.77 | 0.579 / 0 / 0.793 | 1.05 / 0 / 0
CUGGAGCGAUCGCGUCCG | 2.17 | 0.548 / 0.586 / 0.558 | 0 / 0.245 / 0.0476 | 0 / 0.0443 / 0.0199
CUGGAGCGAUCUACCCGG | 0.0646 | 0 / 0.0209 / 0 | 0 / 0 / 0 | 0 / 0 / 0
CUGGAGCGAUUGCGUCUG | 0.566 | 0.196 / 0.440 / 0.372 | 0.0414 / 0.0545 / 0.0317 | 0 / 0 / 0
CUGGAGCGAUUGCGUCAG | 0.937 | 0.333 / 0.272 / 0.279 | 0 / 0 / 0 | 0 / 0 / 0
CUGGAGCGAUUGUGUAAG | 0.937 | 1.84 / 0.984 / 1.49 | 0.517 / 0 / 0.888 | 0.891 / 0 / 0
CUGGAGCGAUUGAUUUCG | 0.905 | 0.274 / 0.272 / 0.316 | 0.145 / 0.0545 / 0.0317 | 0 / 0 / 0
AUGGAGCGAUCGUCUCCG | 0.0162 | 0 / 0 / 0 | 0 / 0 / 0 | 0 / 0 / 0
AUGGAGCGAUUGCUUCAG | 0.0162 | 0 / 0 / 0 | 0 / 0 / 0 | 0 / 0 / 0
CUGGAGCGAUGGCCUCAG | 0.663 | 0.215 / 0.251 / 0.298 | 0.0207 / 0.0273 / 0.0317 | 0 / 0 / 0
CUGGAGCGAUGGAAUCCG | 0.986 | 0.254 / 0.251 / 0.409 | 0.103 / 0.0545 / 0.0159 | 0 / 0 / 0
CUGGAGCGAUCGUUUGCG | 0.857 | 0.372 / 0.272 / 0.391 | 0 / 0.0273 / 0.0317 | 0 / 0 / 0
CUGGAGCGAUUGAUUCUG | 0.824 | 0.235 / 0.356 / 0.428 | 0.0620 / 0.0273 / 0 | 0 / 0 / 0
CUGGAGCGAUUGUAUCGG | 0.889 | 0.274 / 0.293 / 0.149 | 0.0827 / 0 / 0.0159 | 0 / 0 / 0
CUGGAGCGAUCGUAUGCG | 0.937 | 0.294 / 0.188 / 0.354 | 0.0414 / 0.136 / 0.0159 | 0 / 0 / 0
CUGGAGCGAUAGAUUGAG | 0.760 | 0.215 / 0.419 / 0.186 | 0.0207 / 0.0545 / 0.0159 | 0 / 0 / 0
CUGGAGCGAUGGCGUUUG | 0.776 | 0.196 / 0.230 / 0.298 | 0.0620 / 0.0273 / 0.0317 | 0 / 0 / 0
CUGGAGCGAUCGCGUAAG | 0.743 | 0.313 / 0.230 / 0.316 | 0.124 / 0.0273 / 0.0159 | 0 / 0 / 0
CUGGAGCGAUUGACUCUG | 0.857 | 0.235 / 0.209 / 0.298 | 0.145 / 0.0545 / 0.0317 | 0 / 0 / 0
CUGGAGCGAUUGCGUUGG | 0.695 | 0.352 / 0.272 / 0.335 | 0.124 / 0 / 0.0159 | 1.60 / 0 / 0
CUGGAGCGAUAGUUUCGG | 0.711 | 0.215 / 0.251 / 0.465 | 0.0414 / 0 / 0.0159 | 0 / 0 / 0
CUGGAGCGAUUGCCUAAG | 0.905 | 2.35 / 0.796 / 1.66 | 0.517 / 0.0818 / 0.872 | 0 / 0 / 0
CUGGAGCGAUGGCGUGCG | 0.776 | 0.176 / 0.147 / 0.335 | 0.0414 / 0.109 / 0 | 0 / 0 / 0
CUGGAGCGAUUGAUUUUG | 1.50 | 0.802 / 1.65 / 0.986 | 0.0414 / 0.0545 / 0.0476 | 0 / 0 / 0.0399
CUGGAGCGAUCGUCUCGG | 0.792 | 0.196 / 0.293 / 0.298 | 0.0620 / 0.0545 / 0.0159 | 0 / 0 / 0
CUGGAGCGAUGGGAUUUG | 0.824 | 0.235 / 0.209 / 0.186 | 0.0620 / 0.0818 / 0.0317 | 0 / 0 / 0
CUGGAGCGAUCGGUUUUG | 0.760 | 0.235 / 0.293 / 0.316 | 0.0620 / 0.0273 / 0 | 0 / 0 / 0
CUGGAGCGAUAGUAUCGG | 0.840 | 0.352 / 0.168 / 0.261 | 0 / 0 / 0 | 0 / 0 / 0
CUGGAGCGAUGGGCUAUG | 0.776 | 0.352 / 0.209 / 0.335 | 0.0827 / 0.0273 / 0.0317 | 0 / 0 / 0
CUGGAGCAAUGGGGUAGG | 0.0162 | 0 / 0 / 0 | 0 / 0 / 0 | 0 / 0 / 0
CUGGAGCGAUUGAAUUAG | 1.16 | 1.70 / 1.01 / 1.88 | 0.662 / 0.491 / 0.840 | 0.752 / 0.377 / 0
CUGGAGCGAUCGUAUUCG | 0.857 | 0.254 / 0.272 / 0.279 | 0.0414 / 0.0818 / 0.0159 | 0 / 0 / 0
CUGGAGCGAUCGAUUUCG | 0.840 | 0.313 / 0.230 / 0.242 | 0.124 / 0.0273 / 0.0159 | 0 / 0 / 0
CUGGAGCGAUUGACUCGG | 1.36 | 0.548 / 1.70 / 0.651 | 0.0207 / 0.0818 / 0.0317 | 0 / 0 / 0
CUGGAGCGAUAGGUUAGG | 0.937 | 0.196 / 0.314 / 0.279 | 0.0827 / 0.0273 / 0.0317 | 0 / 0 / 0

A selection of 4 entries from above:

CUGGAGCGAUUGAAUUAG (pool 1.16): inoculated region 1.70 / 1.01 / 1.88; leaf margin 0.662 / 0.491 / 0.840; systemic leaves 0.752 / 0.377 / 0.
CUGGAGCAAUGGGGUAGG (pool 0.0162): inoculated region 0 / 0 / 0; leaf margin 0 / 0 / 0; systemic leaves 0 / 0 / 0.
CUGGAGCGAUCGUAUUCG (pool 0.857): inoculated region 0.254 / 0.272 / 0.279; leaf margin 0.0414 / 0.0818 / 0.0159; systemic leaves 0 / 0 / 0.
CUGGAGCGAUCGUUUGCG (pool 0.857): inoculated region 0.372 / 0.272 / 0.391; leaf margin 0 / 0.0273 / 0.0317; systemic leaves 0 / 0 / 0.